The source of these data is article PMC8640510 (Cell Death and Differentiation, 2021).

The experiment deals with SARS-CoV NSP14/10 complex (ExoN activity) (Severe acute respiratory syndrome coronavirus, UniProt P0C6X7). Kind of experiment: biochemical.

The structures appear in SMILES notation.

The compound `CC(C)=CCc1c(O)ccc(C(=O)/C=C/c2ccc(O)cc2)c1O` [#96, Isobavachalcone] gave a concentration for half-maximal inhibition (IC50) of 15 µM.

One may read the IC50 as the concentration needed to halve the response being measured.
